Measured values: ChEMBL document CHEMBL3580569, “N-Substituted Quinolinonyl Diketo Acid Derivatives as HIV Integrase Strand Transfer Inhibitors and Their Activity against RNase H Function of Reverse Transcriptase” (J Med Chem, 2015)

target: Human immunodeficiency virus type 1 reverse transcriptase (Human immunodeficiency virus 1) (UniProt Q72547); experiment: Inhibition of RNase H function of HIV1 reverse transcriptase using DNA/RNA hybrid as substrate at 10 uM by fluorescence spectrometer analysis

SMILES	inhibition [%]
COc1ccccc1Cn1cc(C(=O)/C=C(\O)C(=O)O)c(=O)c2ccccc21	45.2
O=C(O)/C(O)=C/C(=O)c1cn(Cc2ccc([N+](=O)[O-])cc2)c2ccccc2c1=O	42.4
O=C(O)/C(O)=C/C(=O)c1cn(Cc2ccc(O)cc2)c2ccccc2c1=O	44.4
Cc1cc(C)cc(Cn2cc(C(=O)/C=C(\O)C(=O)O)c(=O)c3ccccc32)c1	47
O=C(O)/C(O)=C/C(=O)c1cn(Cc2c(F)cccc2F)c2ccccc2c1=O [RDS-1984]	57.9
O=C(O)/C(O)=C/C(=O)c1cn(Cc2ccc(Cl)cc2Cl)c2ccccc2c1=O	68
O=C(O)/C(O)=C/C(=O)c1cn(Cc2ccccc2F)c2cc(Cl)ccc2c1=O	36.5
Cc1ccc(Cn2cc(C(=O)/C=C(\O)C(=O)O)c(=O)c3ccccc32)c(C)c1	52
O=C(O)/C(O)=C/C(=O)c1cn(Cc2ccc(F)cc2F)c2ccccc2c1=O	46
